# Assay results published in ChEMBL document CHEMBL1148339, “Synthesis, structure-activity relationships, and drug resistance of beta-d-3'-fluoro-2',3'-unsaturated nucleosides as anti-HIV Agents” (J Med Chem, 2004).
# B1: Adenosine deaminase (Bos taurus), P56658 (protein)
# chain: MAQTPAFNKPKVELHVHLDGAIKPETILYYGRKRGIALPADTPEELQNIIGMDKPLSLPEFLAKFDYYMPAIAGCREAVKRIAYEFVEMKAKDGVVYVEVRYSPHLLANSKVEPIPWNQAEGDLTPDEVVSLVNQGLQEGERDFGVKVRSILCCMRHQPSWSSEVVELCKKYREQTVVAIDLAGDETIEGSSLFPGHVKAYAEAVKSGVHRTVHAGEVGSANVVKEAVDTLKTERLGHGYHTLEDATLYNRLRQENMHFEVCPWSSYLTGAWKPDTEHPVVRFKNDQVNYSLNTDDPLIFKSTLDTDYQMTKNEMGFTEEEFKRLNINAAKSSFLPEDEKKELLDLLYKAYGMPSPASAEQCL
# Substrate: Nc1ncnc2c1ncn2[C@H]1C=C(F)[C@@H](CO)O1
# Test: Menten constant against adenosine deaminase (ADA)
# Method in brief: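 Deamination by calf intestinal mucosa adenosine deaminase (0.15 units, MW 33 000, in 2 mL) in phosphate buffer pH 7.4 at 25 °C, substrate 15–100 μM, monitored by UV at 265 nm. Initial rates from graphical fitting of concentration vs time; Vmax and KM from Lineweaver–Burk plot, kcat calculated from enzyme amount.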
protein,measurement,value
B1,Km,8.8 µM
